Assay results: publication PMC6627197, “Development of a High Throughput Screen for the Identification of Inhibitors of Peptidoglycan O-Acetyltransferases, New Potential Antibacterial Targets” (Antibiotics, 2019)

Columns and labels:
N. gonorrhoeae FA1090 = assay: Microtiter plate growth / MIC assay, N. gonorrhoeae; settings: concentrations up to solubility limit
S. aureus ATCC 6538 = assay: Microtiter plate growth / MIC assay, S. aureus; settings: concentrations up to solubility limit

Row | SMILES | Effect on growth of N. gonorrhoeae FA1090 (N. gonorrhoeae FA1090) | Effect on growth of S. aureus ATCC 6538 (S. aureus ATCC 6538)
1 | O=c1ccc2cc(O[C@@H]3O[C@H](CO)[C@@H](O)[C@H](O)[C@H]3O)c(O)cc2o1 [Esculin] | neither esculin nor scopoletin had any significant effect | neither esculin nor scopoletin had any significant effect
2 | COc1cc2ccc(=O)oc2cc1O [Scopoletin] | neither esculin nor scopoletin had any significant effect | neither esculin nor scopoletin had any significant effect
